Literature values as cited in PMC12271536.

Legend:
MPro^WT [1] = settings: 28 °C, cited from earlier work; for ΔG / ΔH / ΔS: ITC; for 1/Ka (Kd): buffer B, 30 µM protein, previous ITC results
MPro^WT [2] = settings: DSF; cited from earlier work

| Compound | ΔG (MPro^WT [1]) | ΔH (MPro^WT [1]) | ΔS (MPro^WT [1]) [cal/mol/K] | 1/Ka (Kd) (MPro^WT [1]) [nM] | ΔTm (difference in Tm in presence and absence of inhibitor) (MPro^WT [2]) [°C] |
| --- | --- | --- | --- | --- | --- |
| Cn1cnc(Cn2c(=O)[nH]/c(=N\c3cc4cn(C)nc4cc3Cl)n(Cc3cc(F)c(F)cc3F)c2=O)n1 | -11.2 kcal/mol | -15.4 ± 0.01 kcal/mol | −13.9 | 6 ± 3 |  |
| CC(C)(C)[C@H](NC(=O)C(F)(F)F)C(=O)N1C[C@H]2[C@@H]([C@H]1C(=O)N[C@H](C#N)C[C@@H]1CCNC1=O)C2(C)C | –11.2 kcal/mol | –10.8 ± 0.70 kcal/mol | 1.57 | 7 ± 3 |  |
| GC373 |  | -6.7 ± 0.10 kcal/mol | 9.1 | 150 ± 30 | 19.8 |
